Measurements: publication PMC6162817, “Peptide Mimics of the Ribosomal P Stalk Inhibit the Activity of Ricin A Chain by Preventing Ribosome Binding” (Toxins, 2018)

Molecular target: Ricin A chain, wild-type, untagged recombinant (Ricinus communis, UniProt P02879 36-302)
Assay: SPR

B1:  (peptide)
peptide: GFGLF
fold KD against P5: > 20 fold
